Here are results for 13 substances from US7129332.

The target of test [1] is EGFRvIII peptide (…-biotin). Nature of the test: SPR (BIAcore), biotinylated peptide on streptavidin chip, immunotoxin injected.
Test [2] has as its target EGFRvIII (mutant epidermal growth factor receptor) on NR6M cells (human) (UniProt P00533). Nature of the test: cell-based or functional assay.

With “MR1 VHCDR3 mutant P98-F99 immunotoxin (scFv-PE38) (from UniProt P11439 278-389; P11439 406-638)”, the Kd in test [1] was determined as 20 nM. Besides, the IC50, cytotoxicity (inhibition of [3H]-leucine incorporation) on NR6M cells in test [2] was 6 ng/mL.

With “MR1 VHCDR3 mutant P98-V99 immunotoxin (scFv-PE38) (from UniProt P11439 278-389; P11439 406-638)”, the IC50, cytotoxicity (inhibition of [3H]-leucine incorporation) on NR6M cells in test [2] came out at 6.5 ng/mL.

“MR1 VHCDR3 mutant P98-I99 immunotoxin (scFv-PE38) (from UniProt P11439 278-389; P11439 406-638)” had a Kd in test [1] of 5 nM. In test [2], this substance yielded an IC50, cytotoxicity (inhibition of [3H]-leucine incorporation) on NR6M cells of 4.5 ng/mL.

For “MR1 VHCDR3 mutant P98-T99 immunotoxin (scFv-PE38) (from UniProt P11439 278-389; P11439 406-638)”, the equilibrium dissociation constant (Kd) in test [1] came out at 8 nM. In addition, the IC50, cytotoxicity (inhibition of [3H]-leucine incorporation) on NR6M cells in test [2] stood at 8 ng/mL.

In the case of “MR1 VHCDR3 mutant P98-N99 immunotoxin (scFv-PE38) (from UniProt P11439 278-389; P11439 406-638)”, in test [2], the IC50, cytotoxicity (inhibition of [3H]-leucine incorporation) on NR6M cells came to 4.5 ng/mL.

Turning to “MR1 VHCDR3 mutant P98-S99 immunotoxin (scFv-PE38) (from UniProt P11439 278-389; P11439 406-638)”, the IC50, cytotoxicity (inhibition of [3H]-leucine incorporation) on NR6M cells in test [2] was determined as 8 ng/mL.

In turn, “MR1 (VH S98P-T99Y) VLCDR3 mutant F92S immunotoxin (scFv-PE38) (from UniProt P11439 278-389; P11439 406-638)” gave a dissociation constant Kd in test [1] of 22 nM. For the same substance, the IC50, cytotoxicity (inhibition of [3H]-leucine incorporation) on NR6M cells in test [2] was determined as 15 ng/mL.

“MR1 VHCDR3 mutant W98-F99 immunotoxin (scFv-PE38) (from UniProt P11439 278-389; P11439 406-638)” registered an IC50, cytotoxicity (inhibition of [3H]-leucine incorporation) on NR6M cells in test [2] of 8 ng/mL.

In test [1], “MR1 (VH S98P-T99Y) VLCDR3 mutant F92L immunotoxin (scFv-PE38) (from UniProt P11439 278-389; P11439 406-638)” registered a Kd of 4 nM. In test [2], this substance showed an IC50, cytotoxicity (inhibition of [3H]-leucine incorporation) on NR6M cells of 5.5 ng/mL.

“MR1 VHCDR3 mutant S98-W99 immunotoxin (scFv-PE38) (from UniProt P11439 278-389; P11439 406-638)” showed an IC50, cytotoxicity (inhibition of [3H]-leucine incorporation) on NR6M cells in test [2] of 8 ng/mL.

The substance “MR1 (VH S98P-T99Y) VLCDR3 mutant F92M immunotoxin (scFv-PE38) (from UniProt P11439 278-389; P11439 406-638)” displayed a Kd in test [1] of 6 nM. This substance came in with an IC50, cytotoxicity (inhibition of [3H]-leucine incorporation) on NR6M cells in test [2] of 9 ng/mL.

Turning to “MR1 VHCDR3 mutant P98-W99 immunotoxin (scFv-PE38) (from UniProt P11439 278-389; P11439 406-638)”, in test [1], the Kd turned out to be 4 nM. The substance also gave an IC50, cytotoxicity (inhibition of [3H]-leucine incorporation) on NR6M cells in test [2] of 4.5 ng/mL.

As to “MR1 (VH S98P-T99Y) VLCDR3 mutant F92R immunotoxin (scFv-PE38) (from UniProt P11439 278-389; P11439 406-638)”, in test [1], the Kd was 9 nM. Further, the IC50, cytotoxicity (inhibition of [3H]-leucine incorporation) on NR6M cells in test [2] turned out to be 6 ng/mL.
